pKd: −log10 of the molar value.
Biological target: HA H4 Hubei (A/swine/Hubei/06/2009(H4N1)) (influenza A virus A/swine/Hubei/06/2009(H4N1))
Assay: BLI
Conditions: not given

**Q.** How did the pKd turn out when MEDI8852 UCA VH K58S Fab was run?
**A.** The pKd was 5.60.

**Q.** With MEDI8852 UCA VH K58S-P75R IgG as the substance, how does the pKd read?
**A.** The pKd was 7.33.

**Q.** MEDI8852 UCA VH K58S-V65P-P75R IgG was tested. Which pKd did it give?
**A.** Its pKd is 7.14.

**Q.** MEDI8852 UCA VH K58S-V65P / VL G95P IgG was tested. Which pKd did it give?
**A.** The pKd was 7.52.

**Q.** With MEDI8852 UCA VH V65P-P75R / VL G95P IgG as the substance, how does the pKd read?
**A.** The pKd was 6.96.

**Q.** How did the pKd turn out when MEDI8852 UCA VH K58S / VL G95P Fab was run?
**A.** The pKd was 5.51.

**Q.** MEDI8852 UCA VH V65P-P75R IgG was tested. Which pKd did it give?
**A.** The pKd was 6.24.

**Q.** MEDI8852 UCA VL G95P Fab was tested. Which pKd did it give?
**A.** Its pKd is 4.77.

**Q.** With MEDI8852 UCA VH V65P / VL G95P IgG as the substance, how does the pKd read?
**A.** Its pKd is 7.00.

**Q.** With MEDI8852 VH W59S Fab as the substance, how does the pKd read?
**A.** The pKd was 9.04.

**Q.** How did the pKd turn out when MEDI8852 UCA VH K58S / VL G95P IgG was run?
**A.** Its pKd is 7.44.

**Q.** With MEDI8852 VH V35Y Fab as the substance, how does the pKd read?
**A.** The pKd was 9.08.

Biological target: HA H7 HK17 (A/Hong Kong/125/2017(H7N9)) (influenza A virus A/Hong Kong/125/2017(H7N9))
Assay: BLI
Conditions: not given

**Q.** With MEDI8852 UCA VH K58S-V65P / VL G95P IgG as the substance, how does the pKd read?
**A.** The pKd was 8.25.

Biological target: SARS-CoV-2 Omicron BA.1 receptor-binding domain (RBD)
Assay: BLI
Conditions: apparent Kd of the bivalent IgG

**Q.** How did the pKd turn out when C143 IgG (wild-type) VL:T33N; VL:G53V was run?
**A.** Its pKd is 6.80.

Same assay, conditions: monovalent Fab

**Q.** “REGN10987 Fab (wild-type) VH:R16G; VL:N91C” was tested. Which pKd did it give?
**A.** Its pKd is 5.35.

— PMC10869273
